Anti-infective test results gathered from many reports (values: NIAID ChemDB through PubChem).

All rows: cytotoxicity tests; measure: CC50

CCn is the concentration with n% toxicity to the cells. Conditions beyond the fields shown may differ between rows.

{"SMILES": "CC(C)OC(=O)C(N)CCSC[C@H]1O[C@@H](n2ccc3c(N)ncnc32)[C@H](O)[C@@H]1O", "cell line": "HeLa", "value": "100 µg/mL"}
{"SMILES": "CC(C)CCCCCOP(=O)(COCCn1cnc2c(N)ncnc21)OCCCCCC(C)C", "cell line": "PHK", "value": "12.9 µg/mL"}
{"SMILES": "CN1CCCCC1C12CC3CC(CC(C3)C1)C2", "cell line": "MDCK", "value": "928 µM"}
{"SMILES": "Nc1nccc2c1ncn2[C@@H]1C=C(CO)[C@@H](O)[C@H]1O", "cell line": "HeLa", "value": "0.31 µg/mL"}
{"SMILES": "Nc1nccc2c1ncn2[C@@H]1O[C@H](CO)[C@@H](O)[C@H]1O", "cell line": "HeLa", "value": ">400 µg/mL"}
{"SMILES": "C=CCNc1nc(N)nc2c1ncn2CCOCP(=O)(O)O", "cell line": "HFF", "value": ">305 µM"}
{"SMILES": "CC1=CC2O[C@H]3C[C@H]4OC(=O)/C=C\\C=C\\C(=O)OCC/C(C)=C/C(=O)OCC2(CC1)[C@@]4(C)[C@]31CO1", "cell line": "VERO", "value": "0.0082 µg/mL"}
{"SMILES": "Nc1ncnc2c1ncn2C[C@H]1COP(=O)(O)CO1", "cell line": "PHK", "value": "17.2 µg/mL"}
{"SMILES": "C1CCNC(C23CC4CC(CC(C4)C2)C3)CC1", "cell line": "MDCK", "value": "186 µM"}
{"SMILES": "NC(=O)c1ncn([C@@H]2O[C@H](CO)[C@@H](O)[C@H]2O)n1", "cell line": "LLC-MK2", "value": ">100 µg/mL"}
{"SMILES": "CCCCCCCCCCCCCCCCCCOCCOP1(=O)CO[C@@H](Cn2ccc(N)nc2=O)CO1", "cell line": "HFF", "value": "47.8 µM"}
{"SMILES": "CO[C@H]1C(n2ccc(NC(=O)c3ccccc3)nc2=O)O[C@H](CO)[C@H]1O", "cell line": "VERO 76", "value": ">7 µM"}
{"SMILES": "Nc1ncnc2c1ncn2C[C@H](O)CO", "cell line": "HeLa", "value": ">400 µg/mL"}
{"SMILES": "O=c1cnn([C@@H]2O[C@H](CO)[C@@H](O)[C@H]2O)c(=O)[nH]1", "cell line": "VERO", "value": "0.9 µg/mL"}
{"SMILES": "C[C@@]1(CO)[C@H](O)CC[C@@]2(C)[C@H]1CC[C@H]1C[C@@H]3C[C@@]12CC[C@]3(O)CO", "cell line": "HeLa", "value": "0.22 µM"}
{"SMILES": "CC(C)OC(=O)C(C)NP(=O)(COCCn1cnc2c(NC3CC3)nc(N)nc21)Oc1ccccc1", "cell line": "HFF", "value": ">209 µM"}
{"SMILES": "Nc1ncnc2c1ncn2[C@H]1[C@H](O)[C@H](O)[C@]2(CO)O[C@H]12", "cell line": "HeLa", "value": "8.2 µg/mL"}
{"SMILES": "Nc1nccc2c1ncn2[C@@H]1C=C[C@@H](O)[C@H]1O", "cell line": "VERO E6", "value": ">1700 µM"}
{"SMILES": "Nc1ccn([C@H]2C[C@H](O)[C@@H](CO)O2)c(=O)n1", "cell line": "VERO 76", "value": ">100 µM"}
{"SMILES": "C=CSC[C@H]1O[C@@H](n2cnc3c(N)ncnc32)[C@H](O)[C@@H]1O", "cell line": "VERO", "value": ">650 µM"}
{"SMILES": "Nc1nc(NC2CCCC2)c2ncn(CCOCP(=O)(O)O)c2n1", "cell line": "PHK", "value": "7.1 µg/mL"}
{"SMILES": "CN1CCCCC1C1C2CC3CC(C2)CC1C3", "cell line": "MDCK", "value": "977 µM"}
{"SMILES": "Nc1ccn(C[C@H]2COP(=O)(O)CO2)c(=O)n1", "cell line": "HFF", "value": ">302 µM"}
{"SMILES": "NC(=O)c1ncn([C@@H]2O[C@H](CO)[C@@H](O)[C@H]2O)c1O", "cell line": "VERO E6", "value": ">200 µg/mL"}
{"SMILES": "Nc1ncnc2c1ncn2[C@@H]1C=C[C@@H](O)[C@H]1O", "cell line": "HeLa", "value": "18 µg/mL"}
{"SMILES": "Nc1nc(N)c2ncn(C[C@H]3CC[C@@H](CO)C3)c2n1", "cell line": "HeLa", "value": "≥400 µg/mL"}
{"SMILES": "Nc1ncnc2c1ncn2CCOCP(=O)(O)O", "cell line": "PHK", "value": "12.3 µg/mL"}
{"SMILES": "C1CCN(CC2CC2)C(C23CC4CC(CC(C4)C2)C3)C1", "cell line": "MDCK", "value": "162 µM"}
{"SMILES": "CN(C)C(=O)/N=N/C(=O)N(C)C", "cell line": "VERO", "value": ">200 µM"}
{"SMILES": "CN(C)c1nc(N)nc2c1ncn2CCOCP(=O)(O)O", "cell line": "PHK", "value": "1.5 µg/mL"}
{"SMILES": "CCN1CCCCC1C1C2CC3CC(C2)CC1C3", "cell line": "MDCK", "value": "143 µM"}
{"SMILES": "Nc1nc(N)c2nnn(C[C@H]3CC[C@@H](CO)C3)c2n1", "cell line": "HeLa", "value": "400 µg/mL"}
{"SMILES": "c1ccc(CN2CCCCC2C23CC4CC(CC(C4)C2)C3)cc1", "cell line": "MDCK", "value": "145 µM"}
{"SMILES": "Nc1ccn(C[C@H]2COP(=O)(O)CO2)c(=O)n1", "cell line": "PHK", "value": "≥41 µg/mL"}
{"SMILES": "Nc1ncnc2c1ncn2[C@@H]1C[C@H](CO)[C@@H](O)[C@H]1O", "cell line": "VERO E6", "value": "30 µM"}
{"SMILES": "CCOC(=O)C(CCSC[C@H]1O[C@@H](n2ccc3c(N)ncnc32)[C@H](O)[C@@H]1O)NC(=O)COC", "cell line": "HeLa", "value": ">400 µg/mL"}
{"SMILES": "NC12CC3CC(CC(C3)C1)C2", "cell line": "MDCK", "value": ">500 µM"}
{"SMILES": "CCCCCCCCCCCCCCCCOCCCOP(=O)(O)CO[C@H](CO)Cn1ccc(N)nc1=O", "cell line": "HFF", "value": "31 µM"}
{"SMILES": "Cc1c(O)cccc1C(=O)N[C@@H](CSc1ccccc1)[C@H](O)CN1C[C@H]2CCCC[C@H]2C[C@H]1C(=O)NC(C)(C)C", "cell line": "VERO", "value": "14.5 µM"}
{"SMILES": "Nc1nc2c(ccn2[C@H]2C[C@H](O)[C@@H](CO)O2)c(=O)[nH]1", "cell line": "VERO E6", "value": ">100 µM"}
{"SMILES": "Nc1nc2c(nnn2CCOCP(=O)(O)O)c(=O)[nH]1", "cell line": "PHK", "value": "6.4 µg/mL"}
{"SMILES": "CC1=C[C@H]2O[C@@H]3C[C@H]4OC(=O)/C=C\\C=C\\[C@H]([C@@H](C)O)OCC[C@@H](C)[C@H](O)C(=O)OC[C@@]2(CC1)[C@]4(C)[C@]31CO1", "cell line": "VERO", "value": "0.0073 µg/mL"}
{"SMILES": "Nc1nccc2c1ncn2[C@@H]1C[C@H](CO)[C@@H](O)[C@H]1O", "cell line": "HeLa", "value": ">400 µg/mL"}

6 of the rows above, restated:

SMILES,cell line,value
Nc1ncnc2c1ncn2[C@@H]1C=C[C@@H](O)[C@H]1O,HeLa,18 µg/mL
CN(C)c1nc(N)nc2c1ncn2CCOCP(=O)(O)O,PHK,1.5 µg/mL
Nc1nccc2c1ncn2[C@@H]1O[C@H](CO)[C@@H](O)[C@H]1O,HeLa,>400 µg/mL
Nc1ncnc2c1ncn2C[C@H](O)CO,HeLa,>400 µg/mL
CCCCCCCCCCCCCCCCCCOCCOP1(=O)CO[C@@H](Cn2ccc(N)nc2=O)CO1,HFF,47.8 µM
Nc1ncnc2c1ncn2C[C@H]1COP(=O)(O)CO1,PHK,17.2 µg/mL